Compound potency records, mixed from different reports. Data source: NIAID ChemDB in PubChem.

Shared fields: target-level tests

a–b is a range or a potency band. Rows are shuffled and stem from different studies. Blank or dashed fields: not listed here. Percent inhibition refers to the dose given; in toxicity tests it is the harm to the cells. ICn: concentration for n% inhibition.

smiles	tested at	protein	species	endpoint	result
COc1nc(NCCCN2CCCC2=O)nc(Nc2ccc3cn[nH]c3c2)n1	1 µg/mL	DNA polymerase	Hepatitis B virus	inhibition	43%
O=C(O)c1nc(-c2ccc(S(=O)(=O)Cc3ccccc3Oc3ccc(Cl)cc3Cl)cc2)[nH]c(=O)c1O		HCV polymerase	Hepatitis C virus	IC50	<100 µM
CC(C)N(C(=O)c1ccc2cc(-c3nc4cc(C(=O)O)ccc4n3C3CCCCC3)ccc2n1)c1ccc(Cl)cc1	33 µM	NS5B polymerase	Hepatitis C virus	inhibition	99.13%
COc1nc(NCCc2c[nH]c3ccccc23)nc(Nc2ccc3[nH]ncc3c2)n1		DNA polymerase	Hepatitis B virus	IC50	>1 µg/mL
CNC(=O)c1c(-c2ccc(F)cc2)oc2cc(N(C)S(C)(=O)=O)c(OCC(=O)OC(C)(C)C)cc12		Nonstructural protein 5B	Hepatitis C virus	IC50	≤0.5 µM
O=C(O)c1cc2nc(-c3cccc(Cl)c3)cc(-c3cccc(F)c3)n2n1		RNA-dependent RNA polymerase	Hepatitis C virus	IC50	>10 µM
COc1ccc(-c2ccc(Cl)cc2)c(-c2ccc3cc(-c4nc5cc(C(=O)O)ccc5n4CCC(C)C)ccc3n2)c1	100 µM	NS5B polymerase	Hepatitis C virus	inhibition	98.77%
COc1nc(Nc2ccc3cn[nH]c3c2)nc(N2CCCC2)n1	1 µg/mL	Nonstructural protein 5B	Hepatitis C virus	inhibition	33%
Cc1ccc(C(=O)N(C)c2cc(-c3cccc(O)c3)sc2C(=O)O)cc1		NS3 ATPase	Hepatitis C virus	IC50	<5 µM
CCOC(=O)C1=CN(N2CCN(c3nc(Nc4ccc5cn[nH]c5c4)nc(OC)n3)CC2)C(SC)N=C1	1 µg/mL	DNA polymerase	Hepatitis B virus	inhibition	53%
Cc1ccccc1S(=O)(=O)Nc1cc(-c2cn[nH]c2)sc1C(=O)O		NS3 ATPase	Hepatitis C virus	IC50	<5 µM
NC(=O)c1cnn2c(-c3cccc(C(F)(F)F)c3)ccnc12		RNA-dependent RNA polymerase	Hepatitis C virus	IC50	>10 µM
CCn1c(-c2ccc3nc(-c4cc(OC)ccc4-c4ccc(Cl)cc4)ccc3c2)nc2cc(C(=O)O)ccc21	100 µM	NS5B polymerase	Hepatitis C virus	inhibition	101%
CC(=O)c1ccc(-c2cc(NS(=O)(=O)c3ccc(Cl)cc3)c(C(=O)O)s2)cc1		NS3 ATPase	Hepatitis C virus	IC50	<5 µM
CNC(=O)C1CCN(c2nc(Nc3ccc4[nH]ncc4c3)nc(OC)n2)CC1	0.1 µg/mL	Nonstructural protein 5B	Hepatitis C virus	inhibition	0%
N#Cc1cnn2c(-c3ccccc3)c(-c3ccc(OCc4ccccc4)cc3)cnc12		RNA-dependent RNA polymerase	Hepatitis C virus	IC50	>10 µM
CC[C@@H](C=O)NC(=O)[C@@H]1C[C@@H](OCc2ccccc2)CN1C(=O)[C@@H](NS(=O)(=O)c1ccccc1)C(C)C		NS3 protease	Hepatitis C virus	Ki	>100 µM
NC(=O)[C@H](Cc1cnc[nH]1)NC(=O)c1ccc2ccc(-c3nc4cc(C(=O)O)ccc4n3C3CCCCC3)cc2n1	100 µM	NS5B polymerase	Hepatitis C virus	inhibition	79.47%
O/N=C\c1cnn2c(C3CCCCC3)c(-c3ccc(OCc4ccccc4)cc3)cnc12		RNA-dependent RNA polymerase	Hepatitis C virus	IC50	>10 µM
Cc1cccc(CNC(=O)Nc2ccccc2-c2nc(C(=O)O)c(O)c(=O)[nH]2)c1		HCV polymerase	Hepatitis C virus	IC50	<100 µM
CC[C@@H](C=O)NC(=O)[C@@H]1C[C@@H](OC(=O)NCc2ccccc2)CN1C(=O)[C@@H](NC(=O)[C@@H](NC(=O)c1cnccn1)C(C)C)C(C)C		NS3 protease	Hepatitis C virus	Ki	1–100 µM
COc1ccc(-c2ccccc2F)c(-c2ccc3cc(-c4nc5cc(C(=O)O)ccc5n4C4CCCCC4)ccc3n2)c1	33 µM	NS5B polymerase	Hepatitis C virus	inhibition	102%
CCCOc1cc2c(C(=O)NC)c(-c3ccc(F)cc3)oc2cc1N(CCC)S(C)(=O)=O		Nonstructural protein 5B	Hepatitis C virus	IC50	≤0.5 µM
COc1nc(Nc2ccc3cn[nH]c3c2)nc(NN2CCN(C)CC2)n1	0.1 µg/mL	DNA polymerase	Hepatitis B virus	inhibition	12%
CC[C@@H](C=O)NC(=O)[C@@H]1C[C@@H](OCc2ccccc2)CN1C(=O)[C@@H](NC(=O)c1cccc2ccccc12)C(C)C		NS3 protease	Hepatitis C virus	Ki	1–100 µM
O=C(O)c1nc(-c2ccccc2NS(=O)(=O)c2ccc(Cl)c(Cl)c2)[nH]c(=O)c1O		HCV polymerase	Hepatitis C virus	IC50	<100 µM
COCCNc1nc(Nc2ccc3[nH]ncc3c2)nc(OC)n1	10 µg/mL	Nonstructural protein 5B	Hepatitis C virus	inhibition	90%
CNC(=O)c1c(-c2ccc(F)cc2)oc2cc(N(C)S(C)(=O)=O)c(OCC(=O)c3ccc(F)cc3)cc12		Nonstructural protein 5B	Hepatitis C virus	IC50	≤0.5 µM
COc1cc(-c2cc(-c3ccc(Oc4ccccc4)cc3)nc3cc(C(=O)O)nn23)ccc1Cl		RNA-dependent RNA polymerase	Hepatitis C virus	IC50	1–10 µM
O=C(CCC1CCCC1)Nc1ccsc1-c1nc(C(=O)O)c(O)c(=O)[nH]1		HCV polymerase	Hepatitis C virus	IC50	<25 µM
O=C(O)c1ccc2c(c1)nc(-c1ccc3nc(-c4cnccn4)ccc3c1)n2C1CCCCC1	33 µM	NS5B polymerase	Hepatitis C virus	inhibition	92.7%
O=C(O)c1nc(-c2cccc(O)c2)[nH]c(=O)c1O		HCV polymerase	Hepatitis C virus	IC50	<100 µM
COc1cccc(-c2ccc(-c3nc4cc(C(=O)O)[nH]n4c(=O)c3C3CCCCC3)cc2)c1		RNA-dependent RNA polymerase	Hepatitis C virus	IC50	1–10 µM
O=C(O)c1ccc2c(c1)nc(-c1ccc3nc(-c4ccc5c(c4)CCO5)ccc3c1)n2C1CCCCC1	33 µM	NS5B polymerase	Hepatitis C virus	inhibition	95.8%
CC[C@@H](C=O)NC(=O)[C@@H]1C[C@@H](OCc2ccccc2)CN1C(=O)[C@@H](NC(=O)c1ccc(O)c(Cl)c1)C(C)C		NS3 protease	Hepatitis C virus	Ki	1–100 µM
Nc1ccccc1S(=O)(=O)Nc1cc(-c2ccccc2)sc1C(=O)O		NS3 ATPase	Hepatitis C virus	IC50	<5 µM
O=C(O)c1nc(-c2sccc2NC(=O)C2CCc3ccccc3C2)[nH]c(=O)c1O		HCV polymerase	Hepatitis C virus	IC50	<25 µM
O=C(O)c1sc(-c2ccccc2)cc1N(C(=O)c1ccc(Cl)cc1Cl)C1CC[C@@H](C(=O)O)C1		NS3 ATPase	Hepatitis C virus	IC50	<5 µM
O=C(N[C@@H](Cc1c[nH]c2ccccc12)C(=O)O)c1cnn2c(C3CCCCC3)c(-c3ccc(Cl)cc3)cnc12		RNA-dependent RNA polymerase	Hepatitis C virus	IC50	<1 µM
CC(C)c1ccc(S(=O)(=O)Nc2ccccc2-c2nc(C(=O)O)c(O)c(=O)[nH]2)cc1		HCV polymerase	Hepatitis C virus	IC50	<100 µM
O=C(O)c1ccc2c(c1)nc(-c1ccc3nc(-c4cc5cccc(O)c5o4)ccc3c1)n2C1CCCCC1	33 µM	NS5B polymerase	Hepatitis C virus	inhibition	78.12%

A second listing of 3 rows from above:

smiles	tested at	protein	species	endpoint	result
COc1ccc(-c2ccc(Cl)cc2)c(-c2ccc3cc(-c4nc5cc(C(=O)O)ccc5n4CCC(C)C)ccc3n2)c1	100 µM	NS5B polymerase	Hepatitis C virus	inhibition	98.77%
O/N=C\c1cnn2c(C3CCCCC3)c(-c3ccc(OCc4ccccc4)cc3)cnc12		RNA-dependent RNA polymerase	Hepatitis C virus	IC50	>10 µM
CC[C@@H](C=O)NC(=O)[C@@H]1C[C@@H](OCc2ccccc2)CN1C(=O)[C@@H](NS(=O)(=O)c1ccccc1)C(C)C		NS3 protease	Hepatitis C virus	Ki	>100 µM